Pooled drug test results. Numbers come from NIAID ChemDB, via PubChem.

All rows: tests in culture; species: HIV-1; method: syncytia; read-out: EC50

ECn is the concentration giving n% inhibition of infection, replication or growth. Neighbouring rows are from separate reports. An empty or dashed field is not shown.

compound | cell line | changes | strain | result
Cc1cn([C@H]2C[C@H](N=[N+]=[N-])[C@@H](CO)O2)c(=O)[nH]c1=O | CEM | - | IIIB | 0.003 µM
CCc1cc(NCc2nc3c(Cl)ccc(Cl)c3o2)c(=O)[nH]c1C | CEM | - | MN | 0.03 µM
CCNc1cccnc1N1CCN(C(=O)c2cc3cc(OC)ccc3[nH]2)CC1 | CEM | RT-L100I | IIIB-TIBO(0.5)(RT-L100I) | 1.3 µg/mL
CCNc1cccnc1N1CCN(C(=O)c2cc3cc(OC)ccc3[nH]2)CC1 | CEM | RT-Y188H | IIIB HEPT-resistant (RT Y188H) | 0.35 µg/mL
CCN1C(=O)N(Cc2cccc(Cl)c2)S(=O)(=O)c2cscc21 | CEM | RT-E138K | - | 9.2 µM
Cc1cn([C@H]2C[C@H](N=[N+]=[N-])[C@@H](CO)O2)c(=O)[nH]c1=O | CEM | - | IIIB-TIBO(0.1) | 0.008 µM
CCc1cc(NCc2nc3c(Cl)ccc(Cl)c3o2)c(=O)[nH]c1C | CEM | RT-Y181C | IIIB PYR(RT-Y181C) | ≥5 µg/mL
O=C1N(Cc2ccccc2)c2cscc2S(=O)(=O)N1Cc1ccccc1 | CEM | RT-E138K | - | ≥10.4 µM
CC(C)Nc1cccnc1N1CCN(C(=O)c2cc3ccccc3[nH]2)CC1 | CEM | - | IIIB | 0.04 µM
Nc1ccn([C@H]2CC[C@@H](CO)O2)c(=O)n1 | CEM | RT-L100I | IIIB TIBO R82150-resistant (RT L100I) | 0.018 µM
Cc1cn([C@@H]2O[C@H](CO[Si](C)(C)C(C)(C)C)C3(OS(=O)(=O)C=C3N)[C@H]2O[Si](C)(C)C(C)(C)C)c(=O)n(C)c1=O | CEM | RT-Y181C | Pyr(RT-Y181C) | 3.3 µM
Nc1ccn([C@H]2CC[C@@H](CO)O2)c(=O)n1 | CEM | - | IIIB-TIBO(0.1) | 0.04 µM
CCn1c(=O)c(C)cn([C@@H]2O[C@H](CO[Si](C)(C)C(C)(C)C)C3(OS(=O)(=O)C=C3N)[C@H]2O[Si](C)(C)C(C)(C)C)c1=O | CEM | RT-E138K | IIIB TSAO-T(RT-E138K) | >50 µM
CCN1C(=O)N(Cc2ccccc2)S(=O)(=O)c2cscc21 | MT-4 | RT-D67N K70R T215F K219Q | ADP/141 | 3.1 µM
CC(C)=CCN1Cc2cc(Cl)cc3[nH]c(=S)n(c23)C[C@@H]1C | CEM | - | IIIB | 0.06 µM
Nc1ncnc2c1ncn2CCOCP(=O)(O)O | CEM | RT-L100I Y188H | IIIB TIBO R82913 STR-B22 (RT L100I Y188H) | 10 µM
CC(C)=CCN1Cc2cc(Cl)cc3[nH]c(=S)n(c23)C[C@@H]1C | CEM | RT-V106A | IIIB NEV(RT-V106A) | 0.5 µg/mL
Cc1ccnc2c1NC(=O)c1cccnc1N2C1CC1 | CEM | RT-K103N | - | 5.6 µM
CCOCn1c(Cc2ccccc2)c(CC)c(=O)[nH]c1=O | CEM | RT-V106A | IIIB NEV(RT-V106A) | 0.12 µg/mL
O=c1[nH]cnc2c1ncn2[C@H]1CC[C@@H](CO)O1 | CEM | RT-Y181C | IIIB-Nevirapine(0.1)(RT-Y181C) | 7.5 µM
CCOCn1c(Sc2ccccc2)c(CC)c(=O)[nH]c1=O | CEM | RT-Y181C | IIIB E-EBU(RT-Y181C) | ≥20 µg/mL
O=c1[nH]cnc2c1ncn2[C@H]1CC[C@@H](CO)O1 | CEM | RT-L100I E138K | IIIB TIBO R82913 STR-B02 (RT L100I E138K) | 6.5 µM

For reference, 3 entries again:

compound | cell line | changes | strain | result
CCn1c(=O)c(C)cn([C@@H]2O[C@H](CO[Si](C)(C)C(C)(C)C)C3(OS(=O)(=O)C=C3N)[C@H]2O[Si](C)(C)C(C)(C)C)c1=O | CEM | RT-E138K | IIIB TSAO-T(RT-E138K) | >50 µM
CCc1cc(NCc2nc3c(Cl)ccc(Cl)c3o2)c(=O)[nH]c1C | CEM | - | MN | 0.03 µM
CCNc1cccnc1N1CCN(C(=O)c2cc3cc(OC)ccc3[nH]2)CC1 | CEM | RT-L100I | IIIB-TIBO(0.5)(RT-L100I) | 1.3 µg/mL